Pooled drug test results. Numbers come from NIAID ChemDB, via PubChem.

Common to all: whole-cell or culture tests; species: Herpes simplex virus 1; cell line: HeLa; endpoint: EC50

An empty or dashed field is not shown. Neighbouring rows are from separate reports. ECn: concentration that inhibits the pathogen or its effect by n%.

smiles | strain | read by | result
Cc1c(C(N)=O)ncn1COCCO | - | cytopathic effect | >200 µg/mL
C=C(NC(=O)C(=C)NC(=O)c1csc(C2=NC3CC4(C2)NC(=O)C(C)NC(=O)C(=C)NC(=O)C(=C)NC(=O)C(C(C)C)NC2C=Cc5c(C(C)O)cc(nc5C2O)C(=O)OC(C)C(NC(=O)c2csc(n2)C(C(C)(O)C(C)O)NC(=O)C2CSC(=N2)/C(=C\C)NC(=O)C(C(C)O)NC(=O)c2csc4n2)c2nc3cs2)n1)C(N)=O | KOS | cytopathic effect | >200 µg/mL
C[C@@]1(CO)[C@H](O)CC[C@@]2(C)[C@H]1CC[C@H]1C[C@@H]3C[C@@]12CC[C@]3(O)CO | F | plaque count | 0.24 µM
NC(=O)c1c[se]c([C@@H]2O[C@H](CO)[C@@H](O)[C@H]2O)n1 | KOS | cytopathic effect | 2 µg/mL
C[C@@H]1C[C@@H]([C@H](O)CC2CC(=O)NC(=O)C2)C(=O)[C@@H](C)C1 | KOS | cytopathic effect | >200 µg/mL
Nc1nc2c(ncn2COCCO)c(=O)[nH]1 | - | plaque count | 0.1 µM
CO[C@H]1C[C@H](O[C@H]2[C@@H](C)[C@@H](O[C@@H]3O[C@@H](C)C[C@H](N(C)C)[C@H]3O)[C@H](C)C[C@@]3(CO3)C(=O)[C@H](C)[C@H](O)[C@@H](C)[C@H](C)OC(=O)[C@H]2C)O[C@@H](C)[C@@H]1O | KOS | cytopathic effect | >200 µg/mL
O=c1[nH]c(=O)n([C@@H]2C[C@@H](O)[C@H](CO)O2)cc1/C=C/Br | - | plaque count | 0.2 µM
N[C@@H](CCC(=O)O)C(=O)N[C@@H](CCC(=O)O)C(=O)N[C@@H](CCC(=O)O)C(=O)O | KOS | cytopathic effect | >200 µg/mL
CC(=O)OC[C@H]1O[C@H](OC(=O)NS(=O)(=O)OC[C@H]2O[C@@H](n3ccc(=O)[nH]c3=O)[C@H](OC(C)C)[C@@H]2OC(C)C)[C@H](OC(C)=O)[C@@H](OC(C)=O)[C@@H]1OC(C)=O | KOS | plaque count | >540 µM
COC(=O)[C@]1(C)CCC[C@@]2(C)[C@H]1[C@H](O)CC1CC(=O)[C@]3(C)CC[C@]12C3 | F | plaque count | 34.5 µM
O=C(NS(=O)(=O)OC[C@H]1O[C@@H](n2ccc(=O)[nH]c2=O)[C@H](O)[C@@H]1O)O[C@H]1O[C@H](COC(=O)c2ccccc2)[C@@H](OC(=O)c2ccccc2)[C@H](OC(=O)c2ccccc2)[C@H]1OC(=O)c1ccccc1 | KOS | plaque count | 75 µM
C[C@@]12CC[C@]3(C1)C(CC2=O)C[C@@H](OC(=O)c1ccccc1)[C@H]1[C@](C)(C(=O)O)CCC[C@@]13C | F | plaque count | 0.039 µM
Cc1c(C(N)=O)ncn1C1OC(CO)C(O)C1O | - | cytopathic effect | 75 µg/mL
O=c1[nH]c(=O)n([C@H]2C[C@H](O)[C@@H](CO)O2)cc1I | - | plaque count | 0.5 µM
NC(=O)O[C@H]1O[C@H](COCc2ccccc2)[C@@H](OCc2ccccc2)[C@H](OCc2ccccc2)[C@H]1OCc1ccccc1 | KOS | plaque count | >350 µM
Cn1c(=O)c2c(ncn2C)n(C)c1=O | KOS | cytopathic effect | >200 µg/mL
COC(=O)[C@]1(C)CCC[C@@]2(C)[C@H]1[C@H](OC(=O)c1ccccc1)CC1CC(=O)[C@]3(C)CC[C@]12C3 | F | plaque count | 6.7 µM
COc1cc2c(cc1O)C[C@H]1c3c(cc(O)c(OC)c3-2)CCN1C | KOS | cytopathic effect | >200 µg/mL
CC(C)OC1[C@H](n2ccc(=O)[nH]c2=O)O[C@H](COS(=O)(=O)NC(=O)O[C@H]2O[C@H](CO)[C@@H](O)[C@H](O)[C@H]2O)[C@H]1OC(C)C | KOS | plaque count | >350 µM
COc1ccc(Cl)c(C)c1C(=O)OC1CC(OC2C(O)CC(O[C@H]3CCC[C@@H]4[C@@H]3C=C[C@H]3CCCC/C=C/[C@@H]5C=C(C(=O)O)[C@H](C)C[C@]56OC(=O)C(=C6O)OC(=O)[C@@]43C)OC2C)OC(C)C1O | KOS | cytopathic effect | >200 µg/mL
C[C@@H](Oc1ccc(Cl)cc1)C(=O)O | TYLER | plaque count | 800 µM

For reference, 2 entries again:

{"smiles": "C[C@@H](Oc1ccc(Cl)cc1)C(=O)O", "strain": "TYLER", "read by": "plaque count", "result": "800 µM"}
{"smiles": "N[C@@H](CCC(=O)O)C(=O)N[C@@H](CCC(=O)O)C(=O)N[C@@H](CCC(=O)O)C(=O)O", "strain": "KOS", "read by": "cytopathic effect", "result": ">200 µg/mL"}